# According to the supplement of paper PMC12637763:
# The other results are listed elsewhere or left out. Env chains of viruses from a treatment-interruption trial, translated from the printed DNA. IC50 / IC80 of two broadly neutralizing antibodies; lower = more sensitive virus; >50 µg/ml means not reached and <0.001 µg/ml is below the lowest dose. No active / inactive call.
# B1: HIV-1 Env, reservoir clone (protein)
# chain: MKAKETRKNYQHLWRWGIMLLGMLMICSAASQLWVTVYYGVPVWKEATTTLFCASDAKAYDTEVHNVWATHACVPTDPNPQEVVLGNVTEDFNMWKNNMVEQMHEDIISLWDQSLKPCVKITPLCVTLNCTEYSNATSTTWGQMEKGEIKNCSFNVTTNIKNKMQKEYALFYKLDVVPIGDNSTNYRLIKCNTSAITQACPKVSFQPIPIHYCAPAGFAILKCNNKTFNGLGPCTNVSTVQCTHGIRPVVSTQLLLNGSLAEEEIVIRSENFSDNAKNIIVHLNASIEINCTRPNNNTRKSITIGPGRAFYATGDVIGDIRQAHCNISGEKWNEALKQIAIKLREQFGHDKTIVFNQSSGGDPEIVAHSVNCGGEFFYCNSTKLFNSTWHSNGTQNNTTESNETITLPCKIKQIINLWQEVGKAIYAPPISGPIRCSSNITGLLLTRDGGHTSETNKETFRPGGGDMRDNWRSELYKYKVVKIEPLGVAPTKAKRRVVQRERRAVGTFGALFLGFLGTAGSTMGAASITLTVQARQLLSGIVQQQNNLLKAIEAQQHLLQLTVWGIKQLQARVLAVERYLKDQQLLGLWGCSGKLICTTTVPWNASWSNKSLEQIWENMTWMQWEKEIDNYTGIIYSLISESQLQQEKNEKELLELDKWASLWTWFDITNWLWYIRIFIMIVGGLIGLRIVFAVLSIVNKVRKGYSPLSFQTRLPTPRGPDRPEGIEEEGGERGRDTSIRLVDGFLALIWDDLRNLCLFSYHHLRDLILIVVRTVELLGRRGWELLKYWWNLLKYWSQELKKSAVSLFNAAAIAVAEGTDRVIEVVQRAGRGILHVPRRIRQGLERALQ
# B2: HIV-1 Env, reservoir clone (protein)
# chain: MKVKVTMRNYQNLWRGGTLLLGMLMICSGAEQLWVTVYYGVPVWKEANTTLFCASDAKAYDTEVHNVWATHACVPTDPSPQEVVLENVTEDFNIWKNNMVEQMHEDIISLWDQSLKPCVKLTPLCVTLNCSNVNNQTGTNNNSSHGKDVEGEMKNCSFNVTTNIRDKIKREYALLYKLDIVPIDNDNTSYTLTSCNTSVITQACPKVSFEPIPIHYCAPAGFAILKCNNKTFNGKGPCTNVSTVQCTHGIRPVVSTQLLLNGSLAEDVVLRSENFTNNAKTIIVQLKEPVIINCTRPNNNTRKSIPMGPGRAWYTTGEIIGDIRQAHCNISKAQWNKTLQQVVTKLREQFGNKTIVFNQPTGGDPEIVMHSFNCGGEFFYCNTSKLFNSTWNNSTQGINSTGESNTTITIQCKIKQIINMWQQVGKAMYAPPIAGQIKCSSNITGLLLTRDGGGNKTENETFRPAGGDMRDNWRSELYKYKVVQIKPLGIAPTKAKRRVVQREKRAVGIGALFLGFLGAAGSTMGAAAVTLTVQARQLLSGIVQQQNNLLRAIEAQQHMLQLTVWGIKQLQARVLAVERYLRDQQLLGIWGCSGKLICTTTVPWNNSWSNKSLDDIWGNMTWMEWEKEIDNYTYTIYKLIEESQNQQEKNEQELLELDKWANLWNWFDITNWLWYIKIFIIIVGGLIGLRIVFAVLSIVNRVRQGYSPLSLQTLLPAPRGPDRPGEIEKEGGERDKDTSVRLVNGFLAIIWDDLRSLCLFSYRHLRDLLLIVTRIVGLLGHRGWEVLRYWWNLLQYWIQELKNSAVSLLNVTAIAVAEGTDRVIEIAQRACRAVLHIPRRIRQGLERGLL
# B3: HIV-1 Env, reservoir clone (protein)
# chain: MKAKETRKNYQHLWRWGIMLLGMLMICSAASQLWVTVYYGVPVWKEATTTLFCASDAKAYDTEVHNVWATHACVPTDPNPQEVVLGNVTEDFNMWKNNMVEQMHEDIISLWDQSLKPCVKITPLCVTLNCTEYSNATSTTWGQMEKGEIKNCSFNVTTNIKNKMQKEYALFYKLDVVPIGDNSTNYRLIKCNTSAITQACPKVSFQPIPIHYCAPAGFAILKCNNKTFNGLGPCTNVSTVQCTHGIRPVVSTQLLLNGSLAEEEIVIRSENFSDNAKNIIVHLNASIEINCTRPNNNTRKSITIGPGRAFYATGDVIGDIRQAHCNISGEKWNEALKQIAIKLREQFGHNKTIVFNQSSGGDPEIVAHSVNCGGEFFYCNSTKLFNSTWHSNGTQNNTTESNETITLPCKIKQIINLWQEVGKAIYAPPISGPIRCSSNITGLLLTRDGGHTSETNKETFRPGGGDMRDNWRSELYKYKVVKIEPLGVAPTKAKRRVVQRERRAVGTFGALFLGFLGTAGSTMGAASITLTVQARQLLSGIVQQQNNLLKAIEAQQHLLQLTVWGIKQLQARVLAVERYLKDQQLLGLWGCSGKLICTTTVPWNASWSNKSLEQIWENMTWMQWEKEIDNYTGIIYSLISESQLQQEKNEKELLELDKWASLWTWFDITNWLWYIKIFIMIVGGLIGLRIVFAVLSIVNKVRKGYSPLSFQTRLPTPRGPDRPEGIEEEGGERGRDTSIRLVDGFLALIWDDLRNLCLFSYHHLRDLILIVVRTVELLGRRGWELLKYWWNLLKYWSQELKKSAVSLFNAAAIAVAEGTDRVIEVVQRAGRGILHVPRRIRQGLERALQ
# B4: HIV-1 Env, reservoir clone (protein)
# chain: MRVRGIRKNYQRLWGWGITLLGMLMICSATEKMWVTVYYGVPVWKEATTTLFCASDAKAYDKEVHNVWATHACVPTDPSPQEVGLENVTETFNMWKNNMVDQMHEDIMSLWDQSLKPCVKLTPLCVTLNCTDATKVNASEINNSSLGEMKNCSFNITTSIRDKIQRTYAYFYKLDLVPIDTNNTSYRLISCNTSVITQACPKVSFEPIPIHYCAPAGFAILKCRDKKFNGKGECRNVSTVQCTHGIRPVVSTQLLLNGSLAEEEVVIRSNNFTDNAKTIIVQLNQSVQINCTRPNNNRRKSINIGPGRAFYAAGDIIGDIRQAHCNISRTKWNNTLRQIVEKLKEQFPNKTIVFNQSSGGDPEIVMHSFNCGGEFFFCDTTKLFNSTWSNNGTWNSTNSTVGNDTITLPCRMKQIINMWQEVGKAMYAPPISGQIRCSSNITGLLLTRDGGKVNSTNETFRPGGGDMRDNWRSELYKYKVVKIKPLGIAPTKAKRRVVQREKRAVGIGAVFLGFLGAAGSTMGAASVTLTVQARLLLSGIVQQQNNLLRAIEAQQHLLQLTVWGIKQLQARVLAVERYLQDQQLLGIWGCSGKLICTTAVPWNTSWSNKTYKGIWENMTWMQWEKEIDNYTGLIYNLIEESQNQQEKNEQELLELDKWASLWNWFSITQWLWYIKLFVMIVGGLIGLRIVMTILSIVNRVRKGYSPLSFQTHLPTPRGPDRPEGTEEEGGERERDRSERLVNGFLALIWDDLRSLCLFSYHRLRDLILVVTRIVELLGRRGREVLKYWWNLLQYWGQELRNSAVSLLDAIAIAVAGGTDRIIEGVQRVCRAIRHIPRRIRQGAERALV
# B5: HIV-1 Env, rebound clone, antibody arm (protein)
# chain: MRVRGIPRNWQHLWTWWTLTLGLVIICSTSDNLWVTVYYGVPVWEDADTPLFCASDAKAYSTEKHNVWATHACVPTDPNPQELHLENVTEEFNMWKNNMVEQMHEDIISLWDEALKPCVKLTPLCVTLNCVSLNCSSVNKNVTNGNNSTECAEERENLRNCSFNVTTELKDKKEQTYALFYKLDVVQLNSGNNNNNTYRLINCNVSAIKQACPKVTFDPIPIHYCAPAGFAILKCNDKNFNGTGQCHNVSTVLCTHGIKPVVSTQLLLNGSLSEDEIVIKSENITDNAKSIIVQLNSTVSITCSRPNNNTRKSIRIGPGQVFYAQGDIIGDIRQAHCNVNRGNWTKVMQEVKGQLQKIFNKNITFNSSTGGDLEITTHSFNCRGEFFYCNTTGLFDDTLFNNNNTNDTSPITLPCKIKQIVRMWQRVGQAMYAPPIAGEITCISNITGLLLTRDGGNTTNASNETFRPGGGNMRDNWRSELYKYKVVKIKPLGVAPTKARRRVVQREKRAVGLGAVFLGFLGTAGSTMGAASITLTVQVRQLLSGIVQQQSNLLRAIEAQQHLLQLTVWGIKQLQARVLAVERYLKDQQLLGIWGCSGKLICTTNVPWNTSWSNKSYNEIWDNMTWMQWDKEVRNYSQQIYDLIQESQTQQEKNEQELLALDKWTSLWSWFDISSWLWYIKIFIMIVGGLIGLRIVFAVLSIVKRVRQGYSPLSFQTLTHHQREPDRPEGIEEGGGEQDKDRSIRLVSGFLPLAWDDVRSLCLFLYHRLRDFILIAARTLELLGRSCLQGLRLGREGLKYLWNLLVYWGQELKNSAINLFDTAAIVVANWTDRVIEIAQGIGRAILNIPRRIRQGLERALL
# B6: HIV-1 Env, rebound clone, antibody arm (protein)
# chain: MRVRGIPRNWQHLWTWWTLTLGLVIICSTSDNLWVTVYYGVPVWEDADTPLFCASDAKAYSTEKHNVWATHACVPTDPNPQELHLENVTEEFNMWKNNMVEQMHEDIISLWDEALKPCVKLTPLCVTLNCVSLNCSSVNKNVTNGNNSTECAEERENLRNCSFNVTTELKDKKEQTYALFYKLDVVQLNSGNNNNNTYRLINCNVSAIKQACPKVTFDPIPIHYCAPAGFAILKCNDKNFNGTGQCHNVSTVLCTHGIKPVVSTQLLLNGSLSEDEIVIKSENITDNAKSIIVQLNSTVSITCSRPNNNTRKSIRIGPGQVFYAQGDIIGDIRQAYCNVNRGNWTKVMQEVKGQLQKIFNKNITFNSSTGGDLEITTHSFNCRGEFFYCNTTGLFDDTLFNNNNTNDTSPITLPCKIKQIVRMWQRVGQAMYAPPIAGEITCISNITGLLLTRDGGNTTNASNETFRPGGGNMRDNWRSELYKYKVVKIKPLGVAPTKARRRVVQREKRAVGLGAVFLGFLGTAGSTMGAASITLTVQVRQLLSGIVQQQSNLLRAIEAQQHLLQLTVWGIKQLQARVLAVERYLKDQQLLGIWGCSGKLICTTNVPWNTSWSNKSYNEIWDNMTWMQWDKEVRNYSQQIYDLIQESQTQQEKNEQELLALDKWTSLWSWFDISSWLWYIKIFIMIVGGLIGLRIVFAVLSIVKRVRQGYSPLSFQTLTHHQREPDRPEGIEEGGGEQDKDRSIRLVSGFLPLAWDDVRSLCLFLYHRLRDFILIAARTLELLGRSCLQGLRLGREGLKYLWNLLVYWGQELKNSAINLFDTAAIVVANWTDRVIEIAQGIGRAILNIPRRIRQGLERALL
# Columns and labels:
# antibody 10-1074 [1] = test: neutralization IC50; higher = virus less sensitive to the antibody
# Protocol: (§1)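 Pseudovirus bearing the Env chain mixed with antibody, from 50 µg/ml in fivefold dilutions, on TZM-bl reporter cells, in duplicate.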
# antibody 3BNC117 [2] = test: as above
# Protocol: as §1
# antibody 10-1074 [3] = test: neutralization IC80; higher = virus less sensitive to the antibody
# Protocol: as §1
# antibody 3BNC117 [4] = test: as above
# Protocol: as §1
Binder,neutralization IC50 (antibody 10-1074 [1]) [µg/mL],neutralization IC50 (antibody 3BNC117 [2]) [µg/mL],neutralization IC80 (antibody 10-1074 [3]) [µg/mL],neutralization IC80 (antibody 3BNC117 [4]) [µg/mL]
B1,< 0.001,0.041,0.003,> 50
B2,0.003,0.04,0.01,0.186
B3,< 0.001,0.005,0.001,2.9
B4,< 0.001,0.007,0.007,0.036
B5,> 50,0.246,> 50,0.848
B6,> 50,0.139,> 50,0.947
